Reference: patent publication US20210251975A1, “USE OF CICLOPIROX FOR INHIBITING HBV CORE ASSEMBLY” (GWANGJU INSTITUTE OF SCIENCE AND TECHNOLOGY, priority 2018, published 2021)

Tested on: HBV-expressing HepG2.2.15 cell lines and HBV-expressing liver cell lines
Assay: MTS cell viability

With Cc1cc(C2CCCCC2)n(O)c(=O)c1 [ciclopirox] the “cell viability at the highest concentration” value (10 μM) was “maintained” and the “decrease in cell viability” value (HBV-expressing cell lines or HBV-overexpressing cell lines) was “not observed”.
